According to PubChem BioAssay AID651724 (National Center for Advancing Translational Sciences (NCATS), 2012):
The list shows a part of the results, in another mix than the full data. Active and inactive are the calls of the source. Rule as the data show it: active = activity change below about -65%; inconclusive = mostly about -30% to -63%; inactive = weaker than that.

These compounds were tested on CtBP / adenovirus E1A interaction (AlphaScreen) (assay: qHTS Assay for Inhibitors of the CtBP/E1A Interaction). Settings: AlphaScreen GST-E1A/His-CtBP binding, 1536-well; stronger effect = lower value.
Description: Carboxyl-terminal binding protein (CtBP) is a co-repressor for many transcription factors. […] Our studies have shown that CtBP is overexpressed in multiple human cancers, including lung, breast, and head and neck cancers. In particular, it is over-expressed in 50% of primary lung cancer and 90% of metastatic lesions. CtBP suppresses epithelial-specific genes as well as genes critical for apoptosis, providing the underlying molecular mechanism for its role in tumorigenesis. […] Based on the above data, we hypothesize that 1) CtBP suppresses the pro-apoptotic and epithelial genes, therefore overexpressed CtBP in human cancer cells increases EMT and cancer survival; 2) decreasing CtBP's function represents a targeted therapy for lung cancer and potentially multiple cancer types. As a co-repressor, CtBP binds to E1A and other transcription factors through a conserved peptide motif to carry out its action. Inhibiting this interaction using small molecules can potentially serve as effective cancer therapeutics.
To this end, we have developed a homogenous AlphaScreen assay targeting the CtBP/E1A interaction. We performed a large scale HTS of the Molecular Libraries Small Molecule Repository (MLSMR) to identify inhibitors of the CtBP/E1A interaction as potential anti-cancer therapeutics. Compounds identified can also be used as chemical probes to better understand the biological functions of CtBP.
NIH Chemical Genomics Center [NCGC]
NIH Molecular Libraries Probe Centers Network [MLPCN]
Assay Submitter (PI): Rui Zhao, University of Colorado Denver
The first step of the 5uL AlphaScreen assay is to dispense assay buffer (50 mM Tris, pH 8.0, 300 mM NaCl, 0.05% BSA, 0.02% Tween 20, 1 mM TCEP) into a Greiner 1536 white solid bottom microtiter plate (789175-F). Five microliters is added to Column 1, 4 uL is added to Column 2 and 3 uL is added to Columns 3 through 48. A 5X protein solution (125 nM GST-E1A protein + 125 nM His-tagged CtBP protein) is mixed and 1 uL is dispensed to Columns 3-48. Using a 1536 pintool, 23 nL of compound is transferred to the assay plate and the plate is incubated with a lid at 37 deg C in the dark for two hours. A solution of 5X AlphaScreen beads is mixed (50 ug/mL Glutathione linked donor beads + Nickel chelated acceptor beads) and 1 uL is dispensed to Columns 2-48. The assay plate is incubated for one hour, with a lid, at 37 deg C in the dark. The plate is read using a Perkin Elmer Envision using an AlphaScreen protocol.
% is scaled to controls: 0 for no effect and ±100 for the full control effect.

Row | SMILES | activity change
1 | O=P1(N(CCCl)CCCl)OCCCN1CCCl (stereo unspecified) | inactive: 12.5%
2 | Cc1cc(=O)[nH]c(N[N+](=O)[O-])n1 | inactive: 0.22%
3 | CCN(CC)CCCOC(=O)C(O)(c1ccccc1)c1ccccc1 | inactive: -7.38%
4 | O=C(OC1CN2CCC1CC2)C12CC3CC(CC(C3)C1)C2 (stereo unspecified) | inactive: -9.63%
5 | Cc1cc(C)cc(OP(C)(N)=O)c1 (stereo unspecified) | inactive: -8.12%
6 | O=[N+]([O-])c1cc([N+](=O)[O-])c(-c2ccn[nH]2)s1 | inactive: -26.4%
7 | COc1ccc(OP(C)(=O)Nc2cccc(F)c2)cc1 (stereo unspecified) | inactive: -2.05%
8 | CCN(CC)C(=S)SC(NC=O)C(Cl)(Cl)Cl (stereo unspecified) | inactive: 6.43%
9 | O=C(OC1CN2CCC1CC2)c1cccc2[nH]cnc12 (stereo unspecified) | inactive: 2.35%
10 | COc1ccccc1OP(C)(=O)Nc1cc(Cl)ccc1C (stereo unspecified) | inactive: 0%
11 | CC(C)NC(=O)NP(=O)(Oc1ccccc1)Oc1ccccc1 | inactive: -22.1%
12 | COC(=O)C1(C)COP(=O)(N2CCCCCC2)OC1 (stereo unspecified) | inactive: 16.1%
13 | COc1ccccc1OP(C)(=O)Nc1ccc(C)cc1 (stereo unspecified) | inactive: -2.72%
14 | ClCCSc1nnc(-c2cccnc2)o1 | inactive: 7.16%
15 | CCOC(=O)c1ccc(NP(C)(=O)Oc2ccccc2)cc1 (stereo unspecified) | inactive: 5.47%
16 | Cc1ccc2nc3c(c(C)c2c1)CC(C(Cl)Cl)S3 (stereo unspecified) | inactive: 14.5%
17 | O=[N+]([O-])c1ccc2c(c1)C=Nc1ccccc1O2 | inactive: -23.4%
18 | Cc1cccc(C)c1OP(C)(N)=O (stereo unspecified) | inactive: -5.26%
19 | CC(C)(C)c1ccc(OP(C)(=O)Nc2ccc(SC(F)(F)F)cc2)cc1 (stereo unspecified) | inactive: 2.74%
20 | [N-]=[N+]=NC1CCCCC1NC(=O)c1cc([N+](=O)[O-])cc([N+](=O)[O-])c1 (stereo unspecified) | inactive: 1.1%
21 | COc1cc(C(=O)NCC2(N3CCOCC3)CCCCC2)ccc1OCC(C)C | inactive: -10.8%
22 | O=[N+]([O-])c1ccc(-c2cc([N+](=O)[O-])c(O)c([N+](=O)[O-])c2)cc1 | inactive: -0.127%
23 | O=[As](O)(c1ccc(O)cc1)c1ccccc1O | inactive: 13.7%
24 | O=[N+]([O-])c1cc([N+](=O)[O-])c(Nc2cccnc2)c([N+](=O)[O-])c1 | inactive: -27.9%
25 | CP(=O)(Nc1ccccc1Br)Oc1ccccc1 (stereo unspecified) | inactive: -6.12%
26 | COc1ccccc1OP(C)(=O)Nc1ccccc1 (stereo unspecified) | inactive: 15.3%

Row | SMILES | activity change
27 | O=P(Nc1ccccn1)(c1cccc2ccccc12)c1cccc2ccccc12 | inactive: -5.52%
28 | Cc1cc(SC(NC=O)C(Cl)(Cl)Cl)ncn1 (stereo unspecified) | inactive: -2.12%
29 | CCOC(=O)Nc1cccc([As](=O)(O)O)c1 | inactive: -18.1%
30 | CP(=S)(Nn1cnnc1)Oc1ccccc1 (stereo unspecified) | inactive: -0.586%
31 | Cc1cc(SC(NC(=O)c2ccccc2)C(Cl)(Cl)Cl)nc(C(C)C)n1 (stereo unspecified) | inactive: -1.24%
32 | CCCCOc1ccc(C(=O)NCC2(N3CCCCC3)CCCCC2)cc1OC | inactive: -1.42%
33 | COP(=O)(OC)N1CC1c1ccccc1 (stereo unspecified) | inactive: -5.5%
34 | CC1CCNP(=O)(N(CCCl)CCCl)O1 (stereo unspecified) | inactive: 12.4%
35 | CCOC(=O)Nc1ccc([As](=O)(O)O)c(O)c1 | inactive: 9.87%
36 | O=C(O)C(=O)c1ccc(N(CCCl)CCCl)cc1.c1ccc(Nc2ccccc2)cc1 | inactive: 27.5%
37 | CP(=O)(Nc1ccccn1)Oc1ccc(Cl)cc1 (stereo unspecified) | inactive: 8.32%
38 | CCC(C)N(CC(C)C)C(=S)SC(NC(C)=O)C(Cl)(Cl)Cl (stereo unspecified) | inactive: -7.44%
39 | CCOC(=O)c1ccc(NP(C)(=O)Oc2ccc(OC)cc2)cc1 (stereo unspecified) | inactive: 0.573%
40 | CCOC(=O)c1ccc(NC(=O)C(C)(CCl)SC)cc1 (stereo unspecified) | inactive: -1.56%
41 | O=[N+]([O-])c1cc([N+](=O)[O-])c(O)c([N+](=O)[O-])c1.c1ccc(Oc2ccncc2)cc1 | inactive: 4.92%
42 | CSc1ccc(Nc2c([N+](=O)[O-])cc([N+](=O)[O-])cc2[N+](=O)[O-])cc1 | inactive: -7.35%
43 | CCOP(C)(=S)SCC(=O)NC(C)C(=O)O (stereo unspecified) | inactive: 2.42%
44 | O=C(OC1CN2CCC1CC2)c1cccc([N+](=O)[O-])c1 (stereo unspecified) | inactive: 8.46%
45 | Cc1cc(C)cc(OP(C)(=O)Nc2ccc(SC(F)(F)F)cc2)c1 (stereo unspecified) | inactive: -21%
46 | O=C(COc1ccccc1)OC1CN2CCC1CC2 (stereo unspecified) | inactive: 0%
47 | CP(=O)(NC(=O)Nc1ccccc1)Oc1ccccc1 (stereo unspecified) | inactive: -4.89%
48 | CP(=O)(Oc1ccccc1)OC(c1ccccc1)C(F)(F)F (stereo unspecified) | inactive: 7.98%
49 | COC(=O)C1(C)COP(=O)(N2CCCC2)OC1 (stereo unspecified) | inactive: -7.59%
50 | Cc1cccc(C)c1OP(C)(=O)Nc1ccc(SC(F)(F)F)cc1 (stereo unspecified) | inactive: -7.77%
51 | COP1(=S)c2c(C)nn(CCC#N)c2N=C(c2ccc(F)cc2)N1C (stereo unspecified) | inactive: 0.521%
